In the supplement of paper PMC9931576:
Human monoclonal antibodies against the spike receptor-binding domain (heavy:light variable regions). IC50 against pseudoviruses bearing the spike of naturally observed variants; lower = stronger; >10 µg/ml means not reached at the top dose. No active / inactive call. The stated detection limit is 0.0005 µg/ml; values near or below 0.001 µg/ml lie at the floor of the assay.

B1: BD55-6472 (protein)
chain 1: QVLLVQSGAEVQKPGASVKVSCKASGYIFTSCDINWVRQAPGQGLEWMGWVSPASGDTGSAHKFQGRVTMTRDTSISTAFMELSSLRSEDTAVYFCAIALSSASQPRLFVDYYYGWDVWGQGTTVTVSS
chain 2: DIQMTQSPTSLSASVGDRVTITCRASLSIDNYVNWYQQKPGKAPRLLIYAASSLQSGVPSRFSGRGSGTDFTLTISSLQPEDFATYFCQQSYSTPPTFGGGTKVEIK
B2: BD55-6473 (protein)
chain 1: EVRLVESGGGLVKPGGSLRLSCAASGFSFSDAWMTWVRQAPGKGLEWVGHIKSEISGGTTDYAAPVKGRFTISRDDSKDILYLQMNSLKTEDTAMYYCVSSDIWRYYHYGMDVWGRGTTVTVSS
chain 2: DIQMTQSPSTLSTSVGDRVTITCRASQSISTWLAWYQQKPGKAPKLLIYKASTLESGVPSRFSGSGSGTEFTLTISGLQPDDFATYYCQQYNTYPLTFGGGTKVQIK
B3: BD55-6474 (protein)
chain 1: QVQLVESGGGVVQPGRSLRLSCAASGFTFSRYGMHWVRQAPGKGLEWVAVFSYDGSENHYADSVKGRFTISRDTSKNTLYLQMNSLRADDTAVYYCAKGPLYASGWYEGFGDYWGQGTLVTVSS
chain 2: DIQMTQSPSAMSASVGDRVTITCRASQGISNSLAWFQQKPGKVPKRLIYAASSLESGVPSRFSGSGSGTEFTLTISSLQPEDLATYYCLQHNSYPYTFGQGTKLEIK
B4: BD55-6478 (protein)
chain 1: QLRLQESGPGLVKPSETLSLTCTVSDDSISSSNYYWGWVRQPPGKGLEWIGTIYYTGVTYYSPSLKSRVTMSVDTSRNQFSLTLTSVTAADTALYYCARHLGGDREESLTSSWYDSWTGGHFDLWGRGSRVTVSS
chain 2: QSVLTQPPSVSGAPGQRVTISCTGSSSNIGASYDVHWYQQLPGTAPKLLIYGNNNRPSGVPDRFSGSKSGTSASLAITRLQAEDEADYYCQSYDSNMSGWVFGGGTKLTVL
B5: BD55-6481 (protein)
chain 1: QVQLVQSGAEVKKPGASVKVACKASGYTFTSHDINWVRQATGQGLEWMGWMNPNSGNTGYAQKFQGRVTMTRNTSISTAYMELSSLRSEDTAVYYCAAYSGSGRHYPDYYYGLDVWGQGTTVTVSS
chain 2: DIQMTQSPSSLSASVGDRVTITCRASQSISDYLNWYQQKPGKAPKVLIYAATSLLSGVPSRFIGRGSGTDFTLTISSLQPEDFATYYCQQSYSTPPTFGQGTRLEIK
B6: BD55-6488 (protein)
chain 1: EVQLVESGGDLVQPGGSLRLSCAASGFTFTSYPMHWVRHVPGRGLEFVSSITRNGDGSFYADAVKGRFTIFRDNSKNTLFLQMGGLTPEDSAVYYCARESWASTVVTLDFWGQGTLVTVSS
chain 2: DIQMTQSPSSLSASLGDSVTITCRASQSVSSYLNWYQQKPGKAPKLLIHGASTLQSGVPSRFRGSGSGTHFALTITSLQPEDFAIYYCQQSYTSPVYTFGPGTKLEIK
B7: BD55-6494 (protein)
chain 1: QVQLVQSGPEVKKPGTSVKISCEASGFTFSSSAVQWVRQARGQRLEWIGWIVVGSGDTDYGQKFQKRVTVTRDMSTNTAYMELSSLKFEDTAVYYCATGVFHGLSAFDIWGLGTMVTVSS
chain 2: EIVLTQSPGTLSLSPGERVTLSCRASQSVSSFYLAWYQQKPGQAPRLLIWGASNRATGIPDRFSGSGSGTDFTLTISRLEPEDFAVYYCQHFDNSPLFGQGTKLEIK
B8: BD55-6499 (protein)
chain 1: EVQVVESGGGLVKPGGSLRLSCAASGFTSSDAWMSWVRQAPGKGLEWIGRIKSEVGGGTRDYAAPVKGRFIISRDDSENTLYLQMNSLKAEDTAVYYCTTAVNIVITVEPDDAFDTWGQGTMVTVSS
chain 2: SSELTQDPAVSVALGQTVRMTCQGDSLRSYYASWYQQKPGQAPRLVFYGKNNRPSGIPDRFSGSSSGHTASLTITGAQAEDEADYFCNSRDSSGNQFVFGSGTKVTVL
B9: BD55-6502 (protein)
chain 1: QVQLVESGGGVVQPGRSLRLSCAASGFTFTSYGIHWVRQAPGTGLEWVALISSDGYNEYYADSVKGRFTISRDNSKNKMFLQMNSLRAEDTAVYYCAKDAGHDYGGNWGGLLTDYWGQGTLVTVSS
chain 2: QSVLTQPPSVSGAPGQRVTISCTGSSSNIGAGYDVHWYQQLPGTAPKLLIYGNSNRPSGVPDRFSGSKSGTSASLAITGLQAEDEADYYCQSYVSGLSGYVLFGGGTKLTVL
B10: BD55-1256 (protein)
chain 1: QVQLVQSGAEVKRPGSSVKVSCKASGDTFSRYAISWVRQAPGQGLEWMGRIIPMFDKANYAEKFQGRVTMTADKSTITAYMDVSGLRSEDTATYYCGRSSFYDSSGAYIDSWGQGTLVTVSS
chain 2: EIVLTQSPGTLSLSPGERATLSCRASQTVGGSYLAWYQQKPGQAPRLLIYGASSRAAGIPDRFSGSGSGTDFTLTISRLEPEDFALYYCHQYASSPRTFGQGTKVEVK
B11: BD55-6504 (protein)
chain 1: EVQLVQSGAEVKKPGESLKISCKGSGDSFTNHWIAWVRQTPGKGLEWMGLIYPGDSDTRYSPSFQGQVTFSADKSISTAYLQWSRLKASDTAIYYCARHGGALREIDWQNNGMDIWGQGTTVTVSS
chain 2: DIQMTQSPSSLSASVGDRVTITCRASQRISNYLHWYQQKPGQAPKLLIYAASSLQSGVPSRFIGSGSGTDFTLTISNLQPEDFATYYCQQSYTIPTWTFGQGTRVEIK
B12: BD55-6505 (protein)
chain 1: DVQLVQSGAEVKKPGESLKISCKGSENNFVNHWIGWARQMPGKGLEWMGVIYPGDSETKYSPSFKGQVTFSVDTSISTAYLQWSSLKASDTAMYYCASRNWGYYSYGMDVWGQGTTVTVSS
chain 2: IQMTQSPSSLSASVGDRVTITCRASQGINNWLAWYQQKPGKAPELLIYAASTLQSGVPSRFSGSGSGTDFTLTIGSLQPEDFATYYCQQANTFPPTFGQGTRLEIK

How the values were obtained:
Assay in all cases: pseudovirus neutralization IC50; higher = weaker neutralization
[1] = target: SARS-CoV-2 Omicron BA.1 spike pseudovirus
Experimental: (§1)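 Single-round VSV luciferase pseudovirus mixed with antibody dilutions for 1 h and put on Huh-7 cells for about a day; IC50 from the dose curve.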

[2] = target: SARS-CoV-2 Omicron BA.2 spike pseudovirus
Experimental: as §1

[3] = target: SARS-CoV-2 Omicron BA.2.75 spike pseudovirus
Experimental: as §1

[4] = target: SARS-CoV-2 Omicron BA.5 spike pseudovirus
Experimental: as §1

[5] = target: SARS-CoV-2 Omicron BQ.1.1 spike pseudovirus
Experimental: as §1

[6] = target: SARS-CoV-2 Omicron XBB spike pseudovirus
Experimental: as §1

[7] = target: SARS-CoV-2 early D614G spike pseudovirus
Experimental: as §1

| Binder | pseudovirus neutralization IC50 [1] [µg/mL] | pseudovirus neutralization IC50 [2] [µg/mL] | pseudovirus neutralization IC50 [3] [µg/mL] | pseudovirus neutralization IC50 [4] [µg/mL] | pseudovirus neutralization IC50 [5] [µg/mL] | pseudovirus neutralization IC50 [6] [µg/mL] | pseudovirus neutralization IC50 [7] [µg/mL] |
| --- | --- | --- | --- | --- | --- | --- | --- |
| B1 | > 10 | > 10 | > 10 | > 10 | > 10 | > 10 | > 10 |
| B2 | > 10 | > 10 | > 10 | > 10 | > 10 | > 10 | > 10 |
| B3 | > 10 | > 10 | > 10 | > 10 | > 10 | > 10 | > 10 |
| B4 | 0.29 | > 10 | > 10 | > 10 | > 10 | > 10 | 0.0249 |
| B5 | > 10 | > 10 | > 10 | > 10 | > 10 | > 10 | > 10 |
| B6 | > 10 | > 10 | > 10 | > 10 | > 10 | > 10 | > 10 |
| B7 | > 10 | > 10 | > 10 | > 10 | > 10 | > 10 | > 10 |
| B8 | > 10 | > 10 | > 10 | > 10 | > 10 | > 10 | > 10 |
| B9 | > 10 | > 10 | > 10 | > 10 | > 10 | > 10 | > 10 |
| B10 | 2.35 | 1.85 | 0.0598 | > 10 | > 10 | > 10 | 0.001 |
| B11 | > 10 | > 10 | > 10 | > 10 | > 10 | > 10 | > 10 |
| B12 | > 10 | > 10 | > 10 | > 10 | > 10 | > 10 | > 10 |
